Results of unrelated studies side by side (data: NIAID ChemDB).

All rows: tests in culture; species: Varicella zoster virus; cells: HEL; measure: EC50

Blank or dashed fields: not listed here.

compound | strain | method | value
OC[C@H]1O[C@H](c2ccc(F)cc2F)C[C@@H]1O | (TK-)/YS/R | plaque count | >200 µM
OC[C@H]1CC(n2cnc3c(NC4CC4)ncnc32)C[C@@H]1CO | OKA | - | >100 µg/mL
CC1(C)[C@@H](CO)CC[C@@]1(C)Cn1cc(Br)c(=O)[nH]c1=O | YS | cytopathic effect | >50 µg/mL
O=C(O)P(=O)(O)O | 9/84-C | cytopathic effect / ELISA | 141 µM
O=c1[nH]c(=O)n(C2C[C@H](CO)[C@@H](CO)C2)cc1I | YS | - | >100 µg/mL
Nc1ncnc2c1ncn2C[C@@H](CO)OCP(=O)(O)O | Oka CF1368-resistant | cytopathic effect | 0.043 µM
CCCCOc1ccc(-c2cc3cn([C@H]4C[C@H](O)[C@@H](CO)O4)c(=O)nc3o2)cc1 | YS | cytopathic effect | <0.5 µM
Cc1cc([C@@H]2C[C@H](O)[C@@H](CO)O2)c(F)cc1F | (TK+)/OKA | plaque count | >200 µM
CC1(C)[C@@H](CO)CC[C@@]1(C)Cn1cnc2c(Cl)ncnc21 | YS/R (TK-) | cytopathic effect | >50 µg/mL
O=c1[nH]c(=O)n([C@H]2C[C@H](O)[C@@H](CO)O2)cc1I | 9/84-C | cytopathic effect / ELISA | >100 µM
CC1(C)[C@@H](CO)CC[C@@]1(C)Cn1cnc2c(=O)[nH]cnc21 | YS | cytopathic effect | >50 µg/mL
CCCCc1cc2cnc(=O)[nH]c2o1 | OKA | plaque count | 213 µM
Nc1nc2c(ncn2CC(CO)CCO)c(=O)[nH]1 | 9/84 | cytopathic effect / ELISA | 1 µM
CC1(C)[C@@H](CO)CC[C@@]1(C)Cn1cnc2c(N)ncnc21 | YS | cytopathic effect | >50 µg/mL
CC1(C)[C@@H](CCO)C[C@H]1n1cnc2c(=O)[nH]cnc21 | (TK-)/YS/R | plaque count | >50 µg/mL
N#Cc1cc([C@H]2C[C@H](O)[C@@H](CO)O2)c(F)cc1F | (TK-)07/1 | plaque count | >200 µM
CCCCCCCCC#Cc1cn(S(=O)(=O)c2ccc(C)cc2)c(=O)[nH]c1=O | OKA | plaque count | 16 µM
Nc1nc2c(ncn2CCC(CO)CO)c(=O)[nH]1 | Oka CF1743-resistant | cytopathic effect | 43.6 µM
O=c1[nH]c(=O)n([C@H]2C[C@H](O)[C@@H](CO)O2)cc1/C=C\Cl | YS | plaque count | 0.1 µg/mL
OC[C@H]1O[C@H](c2cc(I)c(F)cc2F)C[C@@H]1O | TK+/YS | plaque count | >200 µM
CCCCCCC#Cc1c[nH]c(=O)[nH]c1=O | OKA | plaque count | >80 µM
CC1(C)[C@@H](CCO)C[C@H]1n1cnc2c(N)nc(N)nc21 | (TK-)/YS/R | plaque count | >50 µg/mL
CCCCCCCCCCC#Cc1cn(S(=O)(=O)c2ccc(C)cc2)c(=O)[nH]c1=O | OKA | plaque count | >16 µM
COc1cc(F)c([C@H]2C[C@H](O)[C@@H](CO)O2)cc1[N+](=O)[O-] | (TK-)07/1 | plaque count | >200 µM
O=C(O)P(=O)(O)O | Clinical isolate VZV-21 | cytopathic effect | 43.2 µM
O=c1ccn([C@@H]2C[C@H](CO)C[C@H]2CO)c(=O)[nH]1 | 07/1 (TK-) | - | >100 µg/mL
O=[N+]([O-])c1cc([C@H]2C[C@H](O)[C@@H](CO)O2)c(F)cc1F | TK+/YS | plaque count | 78 µM
O=c1nc2oc(-c3ccc(Br)cc3)cc2cn1[C@H]1C[C@H](O)[C@@H](CO)O1 | YS/R (TK-) | cytopathic effect | >50 µM
COc1nc(=O)n([C@H]2C[C@H](O)[C@@H](CO)O2)cc1/C=C/Cl | YS/R (TK-) | plaque count | >40 µg/mL
CCCCCC#Cc1c[nH]c(=O)[nH]c1=O | 07/1 | plaque count | >80 µM
Nc1nc2c(ncn2CCC(O)CO)c(=O)[nH]1 | 9/84-C | cytopathic effect / ELISA | >400 µM
Nc1nc(N)c2ncn(CCOCP(=O)(O)O)c2n1 | Oka BVaraU-resistant | cytopathic effect | 3 µM
Cc1cc([C@@H]2C[C@H](O)[C@@H](CO)O2)c(F)cc1Cl | (TK-)/YS/R | plaque count | >200 µM
CCCOc1ccc(-c2cc3cn([C@H]4C[C@H](O)[C@@H](CO)O4)c(=O)nc3o2)cc1 | OKA | cytopathic effect | <0.5 µM
CC1(C)[C@@H](CCO)C[C@H]1n1nnc2c(=O)[nH]cnc21 | (TK-)07/1 | plaque count | >20 µg/mL
CCCCCCCCCCc1cc2cn([C@H]3C[C@H](O)[C@@H](CO)O3)c(=O)nc2o1 | YS/R (TK-) | plaque count | >50 µM
Nc1ncc2ncn(C[C@H]3CCC[C@H]3CO)c2n1 | 07/1 (TK-) | plaque count | >50 µg/mL
O=c1[nH]c(=O)n([C@H]2C[C@H](O)[C@@H](CO)O2)cc1/C=C/Br | (TK-)/YS/R | plaque count | 150 µM
Nc1nc(N)c2ncn([C@H]3CCC[C@H]3CO)c2n1 | YS/R (TK-) | plaque count | 37 µg/mL
OC[C@H]1O[C@@H](c2ccc(F)cc2F)C[C@@H]1O | (TK+)/OKA | plaque count | >200 µM
CC1(C)[C@@H](CCO)C[C@H]1n1cnc2c(=O)[nH]c(N)nc21 | (TK-)/YS/R | plaque count | >50 µg/mL
Cc1ccc(S(=O)(=O)n2cc(I)c(=O)[nH]c2=O)cc1 | OKA | plaque count | 45 µM
Nc1ncc2ncn([C@H]3CCC[C@H]3CO)c2n1 | YS (TK+) | plaque count | >20 µg/mL

The last 4 rows once more:

compound | strain | method | value
OC[C@H]1O[C@@H](c2ccc(F)cc2F)C[C@@H]1O | (TK+)/OKA | plaque count | >200 µM
CC1(C)[C@@H](CCO)C[C@H]1n1cnc2c(=O)[nH]c(N)nc21 | (TK-)/YS/R | plaque count | >50 µg/mL
Cc1ccc(S(=O)(=O)n2cc(I)c(=O)[nH]c2=O)cc1 | OKA | plaque count | 45 µM
Nc1ncc2ncn([C@H]3CCC[C@H]3CO)c2n1 | YS (TK+) | plaque count | >20 µg/mL

Lines come from different laboratories, so protocols vary. ECn is the concentration giving n% inhibition of infection, replication or growth.